A mixed list of measured activities; the numbers were collected in NIAID ChemDB.

All rows: whole-cell or culture tests; species: Herpes simplex virus 1; measure: EC50

ECn is the concentration giving n% inhibition of infection, replication or growth.

| structure | strain or isolate | cell line | read by | value |
|---|---|---|---|---|
| COc1ccc2nc3cc(Cl)ccc3c(NC[C@@H]3CCCN4CCCC[C@H]34)c2c1 | - | VERO 76 | plaque count | >11 µM |
| COC(=O)[C@H](C)NP(=O)(OC[C@@H]1C[C@]12C[C@@H]2n1cnc2c(N)ncnc21)Oc1ccccc1 | - | BSC-1 | ELISA | 7 µM |
| CCC1OC(=O)CC(O)C(C)C(OC2CC(N(C)C)C(OC3CC(C)(O)C(O)C(C)O3)C(C)O2)C(CC=O)CC(C)C(=O)/C=C/C2(C)OC2C1COC1OC(C)C(O)C(OC)C1OC | KOS | HeLa | cytopathic effect | >100 µg/mL |
| N#Cc1cn([C@@H]2O[C@H](CO)C[C@H]2O)c2ncnc(N)c12 | - | HFF | plaque count | 3.4 µM |
| O=C1CCC(c2ccccc2)C(=O)N1CCCCN1CCN(c2ccc(F)cc2)CC1 | - | VERO 76 | MTT | 31 µM |
| Nc1ncnc2c1ccn2[C@@H]1O[C@H](CO)[C@H](O)[C@H]1O | F | PRK | cytopathic effect | 0.2 µg/mL |
| N#Cc1cn([C@@H]2O[C@H](CO)[C@@H](O)[C@@H]2O)c2ncnc(N)c12 | S-148 | BSC-1 | plaque count | 38 µM |
| Nc1nc(N)c2ncn(CCOCP(=O)(O)O)c2n1 | (TK-) 2 strains | Primary rabbit kidney cells | cytopathic effect | 1 µg/mL |
| O=C(NS(=O)(=O)OC[C@@H]1CC[C@H](n2ccc(=O)[nH]c2=O)O1)O[C@H]1O[C@H](COC(=O)c2ccccc2)[C@@H](OC(=O)c2ccccc2)[C@H](OC(=O)c2ccccc2)[C@H]1OC(=O)c1ccccc1 | - | - | cytopathic effect | 75 µM |
| Nc1ncnc2c1ncn2[C@H]1C[C@@H](O)[C@@H](CO)O1 | KOS | PRK/E6SM | cytopathic effect | 150 µg/mL |
| Nc1ncc2c(ncn2COC(CO)CO)n1 | KOS BVDU-resistant | HEL | cytopathic effect | 0.11 µg/mL |
| O=c1[nH]cnc2c1ncn2CCOCP(=O)(O)O | TK- | Primary rabbit kidney cells | - | >400 µg/mL |
| N#C/C(=C/c1ccncc1)c1csc2ccccc12 | MCRAE | MRC-5 | cytopathic effect | <1 µg/mL |
| Nc1ncnc2c1ncn2C[C@@H](CO)OCP(=O)(O)O | 3 strains | Primary rabbit kidney cells | cytopathic effect | 2 µg/mL |
| CC1(C)OC2C(O1)[C@@H](COS(=O)(=O)NC(=O)O[C@H]1O[C@H](COCc3ccccc3)[C@@H](OCc3ccccc3)[C@H](OCc3ccccc3)[C@H]1OCc1ccccc1)O[C@H]2n1ccc(=O)[nH]c1=O | - | - | cytopathic effect | 85 µM |
| Nc1ncnc2c1c(Br)cn2[C@@H]1O[C@H](CO)[C@@H](O)[C@H]1O | KOS | PRK/E6SM | cytopathic effect | >0.2 µg/mL |
| Nc1nc2c(ncn2CC(CO)OCP(=O)(O)O)c(=O)[nH]1 | 3 strains | Primary rabbit kidney cells | cytopathic effect | 7 µg/mL |
| O=C1CCC(c2ccccc2)C(=O)N1CCCN1CCN(c2ccccn2)CC1 | - | VERO 76 | MTT | >100 µM |
| N#CCc1csc2ccccc12 | MCRAE | MRC-5 | cytopathic effect | 2.5 µg/mL |
| Nc1ccn(C[C@@H](CO)OCP(=O)(O)O)c(=O)n1 | KOS S2242-resistant | HEL | cytopathic effect | 0.56 µg/mL |
| O=C1CCC(c2ccccc2)C(=O)N1CCCCN1CCN(c2ccccc2)CC1 | - | VERO 76 | MTT | >100 µM |
| Nc1ncnc2c1ncn2C[C@@H](CO)OCP(=O)(O)O | - | Primary rabbit kidney cells | - | 2 µg/mL |
| O=c1ccn(CC(CO)OCP(=O)(O)O)c(=O)[nH]1 | 3 strains | Primary rabbit kidney cells | cytopathic effect | >400 µg/mL |
| Nc1ncnc2c1ncn2C[C@@H](CO)OCP(=O)(O)O | KOS | HEL | cytopathic effect | 0.11 µg/mL |
| N#Cc1cn([C@@H]2O[C@H](CO)[C@@H](O)[C@H]2O)c2ncnc(N)c12 | KOS | PRK | cytopathic effect | ≥0.04 µg/mL |
| O=c1[nH]cnc2c1ncn2C[C@@H](CO)OCP(=O)(O)O | - | Primary rabbit kidney cells | - | >400 µg/mL |
| O=C(O)P(=O)(O)O | V8663 | SIRC | plaque count | <500 µM |
| O=C(O)P(=O)(O)O | - | GMK | plaque count | >12.5 µg/mL |
| O=C1CCC(c2ccccc2)C(=O)N1CCCCN1CCN(c2ccccn2)CC1 | - | VERO 76 | MTT | >98 µM |
| NC(=O)c1cn([C@H]2CC[C@@H](CO)O2)c2ncnc(N)c12 | - | HFF | plaque count | >100 µM |
| CN1CCC[C@H]1c1cccnc1 | KOS | HeLa | cytopathic effect | >200 µg/mL |
| Nc1ncnc2c1c(I)cn2COC(CO)CO | - | HFF | plaque count | 3.5 µM |
| Nc1nc2c(ncn2[C@H]2C[C@@]23C[C@@H]3CO)c(=O)[nH]1 | - | BSC-1 | ELISA | >100 µM |
| Nc1nc(N)c2ncn(CC(CO)OCP(=O)(O)O)c2n1 | 3 strains | Primary rabbit kidney cells | cytopathic effect | 10 µg/mL |
| Nc1nc2c(ncn2[C@H]2C[C@]23C[C@@H]3CO)c(=O)[nH]1 | - | BSC-1 | ELISA | >100 µM |
| Nc1nc(N)c2ncn(CC(CO)OCP(=O)(O)O)c2n1 | TK- | Primary rabbit kidney cells | - | 10 µg/mL |
| O=c1[nH]c(=S)n([C@@H]2O[C@H](CO)[C@@H](O)[C@@H]2O)cc1Br | KOS | RPMI8226 | plaque count | 3.5 µM |
| CCC(N)C(O)C(O)C(C)C(=O)NC(CC(C)C)C1Cc2cccc(O)c2C(=O)O1 | KOS | HeLa | cytopathic effect | >100 µg/mL |
| Nc1ncnc2c1ccn2[C@@H]1O[C@H](CO)C[C@H]1O | KOS | PRK | cytopathic effect | ≥10 µg/mL |
| CC[C@]12CCCN3CCc4c(n(c5ccccc45)[C@@](O)(C(=O)OC)C1)[C@@H]32 | KOS | HeLa | cytopathic effect | >200 µg/mL |
| Nc1nc(=S)n([C@H]2C[C@H](O)[C@@H](CO)O2)cc1I | KOS | MRC-5 | plaque count | 29.4 µM |
| COC(=O)C(N)CCSC[C@H]1O[C@@H](n2ccc3c(N)ncnc32)[C@H](O)[C@@H]1O | KOS | PRK/E6SM | cytopathic effect | 100 µg/mL |
| COc1ccc2nc3cc(Cl)ccc3c(NC3CN4CCC3CC4)c2c1 | - | VERO 76 | plaque count | >35 µM |
| O=C(NS(=O)(=O)OC[C@H]1O[C@@H](n2ccc(=O)[nH]c2=O)[C@H](O)[C@@H]1O)O[C@H]1O[C@H](COC(=O)c2ccccc2)[C@@H](OC(=O)c2ccccc2)[C@H](OC(=O)c2ccccc2)[C@H]1OC(=O)c1ccccc1 | - | - | cytopathic effect | 30 µM |
| Nc1nc2c(ncn2CC(CO)OCP(=O)(O)O)c(=O)[nH]1 | TK- | Primary rabbit kidney cells | - | 7 µg/mL |
| Nc1ncnc2c1ncn2[C@@H]1O[C@](F)(COS(N)(=O)=O)[C@@H](O)[C@H]1O | KOS | HeLa | cytopathic effect | >100 µg/mL |
| O=c1[nH]c(=S)n([C@H]2C[C@H](O)[C@@H](CO)O2)cc1F | KOS | RPMI8226 | plaque count | 1.46 µM |
| Nc1nc2c(ncn2[C@H]2C[C@@]23C[C@H]3CO)c(=O)[nH]1 | - | BSC-1 | ELISA | >50 µM |
| NC(=O)c1cn([C@H]2C[C@H](O)[C@@H](CO)O2)c2ncnc(N)c12 | S-148 | BSC-1 | - | >34 µM |
| NC(=O)c1cn(COCCO)c2ncnc(N)c12 | - | HFF | plaque count | >100 µM |
| CC[C@H]1OC(=O)[C@H](C)[C@@H](O)[C@H](C)[C@@H](O)[C@](C)(O)C[C@@H](C)C(=O)[C@H](C)[C@@H](O)[C@H]1C | KOS | HeLa | cytopathic effect | >200 µg/mL |
| Nc1ncnc2c1ncn2[C@@H]1O[C@H](CO)[C@@H](O)[C@@H]1O | KOS HPMPA-resistant | HEL | cytopathic effect | 11.9 µg/mL |
| COc1ccc2nc3cc(Cl)ccc3c(N[C@@H]3CCCN4CCCC[C@H]34)c2c1 | - | VERO 76 | plaque count | >70 µM |
| Nc1ncc2ncn(C3OC(C(NC(=O)C4CCCC4N)C(=O)O)CC(O)(C(O)CO)C3O)c2n1 | KOS | HeLa | cytopathic effect | >100 µg/mL |
| Nc1ccn(C[C@@H](CO)OCP(=O)(O)O)c(=O)n1 | - | Primary rabbit kidney cells | - | 4 µg/mL |

Repeating the final 5 entries:

structure | strain or isolate | cell line | read by | value
CC[C@H]1OC(=O)[C@H](C)[C@@H](O)[C@H](C)[C@@H](O)[C@](C)(O)C[C@@H](C)C(=O)[C@H](C)[C@@H](O)[C@H]1C | KOS | HeLa | cytopathic effect | >200 µg/mL
Nc1ncnc2c1ncn2[C@@H]1O[C@H](CO)[C@@H](O)[C@@H]1O | KOS HPMPA-resistant | HEL | cytopathic effect | 11.9 µg/mL
COc1ccc2nc3cc(Cl)ccc3c(N[C@@H]3CCCN4CCCC[C@H]34)c2c1 | - | VERO 76 | plaque count | >70 µM
Nc1ncc2ncn(C3OC(C(NC(=O)C4CCCC4N)C(=O)O)CC(O)(C(O)CO)C3O)c2n1 | KOS | HeLa | cytopathic effect | >100 µg/mL
Nc1ccn(C[C@@H](CO)OCP(=O)(O)O)c(=O)n1 | - | Primary rabbit kidney cells | - | 4 µg/mL

Blank or dashed fields: not listed here. Lines come from different laboratories, so protocols vary.